Experimental findings from ChEMBL document CHEMBL2434925, “Synthesis and antiviral activity of a novel class of (5-oxazolyl)phenyl amines” (Eur J Med Chem, 2013) are described below.

The nature of this test: Selectivity index, ratio of CC50 for african green monkey Vero cells to IC50 for Coxsackie B3 virus Schmitt.

Consider `NC(=O)c1ncn([C@@H]2O[C@H](CO)[C@@H](O)[C@H]2O)n1` [RIBAVIRIN], for which the Ratio CC50/IC50 stood at 9.
